Patent publication US20230348569A1 (published 2023)

Biological target: MERS-CoV (SARS-CoV-2) Spike Protein S1 (aa 1-725, His Tag) (Sino 40069-V08H) (MERS-CoV, UniProt K9N5Q8 18-725)

Binder | Binding signal (MFI)
mAb10984 (antibody, V domains shown) VH: EVQLVESGGGLVQPGGSLRLSCAASGLTVNRNYMSWVRQAPGKGLEWVSLIYSGGSTYYADSVKGRFTISRDNSKNTLYLQMNSLRLEDTAVYYCARGELGIPYGMDVWGQGTTVTVSS VL: QSVLTQPPSVSAAPGQKVTISCSGSSSNIGNNYVSWYQQLPGTAPKLLIYDNNKRPSGIPDRFSGSKSGTSATLGITGLQTGDEADYYCGTWDSSLSAGVFGGGTKLTVLG | 13
mAb10985 (antibody, V domains shown) VH: EVQLVESGGGLVQPGRSLRLSCAASGFTFDDYAMHWVRQAPGKGLEWVSGISWNRGSIGYADSVKGRFTISRDNAKNSLYLQMSSLRAEDTALYYCAKDGERWDSVVVPSARNGMDVWGQGTTVTVSS VL: QSVLTQPPSVSGAPGQRVTISCTGSSSNIGAGYDVHWYQQLPGTAPKLLIYGNSNRPSGVPDRFSGSKSGTSASLAITGLQAEDEADYYCQSYDSSLSGSYVFGTGTKVTVLG | 14
